## Share of PSTVd loop 6 variants by leaf site

From the data files of Wu et al. 2024, doi:10.1371/journal.ppat.1012142.

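Three N. benthamiana plants were inoculated with the whole mutant pool. Progeny were sequenced from the inoculated region (day 5), the margin of the inoculated leaf (day 10) and systemic leaves (day 12).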

Region: loop 6 of PSTVd (intermediate strain), upper and lower strand joined, each 5' to 3', the first 5 letters being the upper strand, closing pairs included. Wild type: UGACCGCGAG. Varied positions (N): UNNNCGNNNG.

Numbers give reads per thousand; 0 = not seen among the reads, higher = more abundant.
Each value is the mean of three plants.
"Pool" is the share in the plasmid pool used as inoculum, on the same scale.
The inoculated region was read from the minus strand, the other sites from the plus strand.
IR is the inoculated region, LM the leaf margin, Sys the systemic leaves.
Wild type was 20.7 per thousand in the pool and the most common sequence in every sample (inoculated region 195, 198, 203; leaf margin 629, 591, 734; systemic leaves 942, 870, 868).

sequence | pool | IR | LM | Sys
UGCCCGCGUG | 0.0654 | 0.101 | 0.0169 | 0.00684
UGCACGCUCG | 0.458 | 0.144 | 0 | 0
UGGGCGCCUG | 0.222 | 0.0714 | 0 | 0
UCUGCGCUAG | 0.105 | 0.131 | 0 | 0
UUCACGCCGG | 0.301 | 0.0840 | 0 | 0
UGUACGCUCG | 0.235 | 0.108 | 0.00773 | 0
UGCACGCACG | 0.235 | 0.0825 | 0 | 0
UUAACGCAUG | 0.0915 | 0.107 | 0.00773 | 0.0474
UUAACGAUAG | 0.353 | 0.594 | 0.0986 | 0
UUUACGUAUG | 0.275 | 0.119 | 0.118 | 0
UGCUCGGCAG | 0.261 | 0.0885 | 0.00773 | 0.0407
UUGUCGUUAG | 0.536 | 0.0831 | 0 | 0.00684
UGGGCGUUGG | 0.327 | 0.100 | 0.0155 | 0
UAGCCGCCAG | 0.222 | 0.143 | 0.0444 | 0.00684
UUUACGCGCG | 0.170 | 0.125 | 0.00773 | 0
UACACGCAGG | 0.196 | 0.125 | 0.00773 | 0
UUCCCGACGG | 0.222 | 0.0888 | 0.0169 | 0
UUGCCGUAAG | 0.0915 | 0.102 | 0.00773 | 0
UGCGCGUGAG | 0.183 | 0.113 | 0 | 0
UUCACGAUAG | 0.405 | 0.0768 | 0.0464 | 0
UGUCCGCCAG | 0.275 | 0.673 | 0.0816 | 0
UGUACGUAAG | 0.196 | 0.0773 | 0 | 0
UCCGCGACGG | 0.183 | 0.0719 | 0 | 0
UAAACGCCUG | 0.0915 | 0.102 | 0.00920 | 0
UCACCGAUCG | 0.222 | 0.0714 | 0 | 0
UUAACGGUUG | 0.196 | 0.114 | 0.00773 | 0
UUACCGUAAG | 0.118 | 0.734 | 0.102 | 0
UUAGCGAAGG | 0.157 | 0.0714 | 0.00920 | 0
UCUGCGAAGG | 0.209 | 0.0654 | 0 | 0
UGGCCGAAGG | 0.222 | 0.162 | 0.0155 | 0
UUGCCGUCAG | 0.366 | 0.0593 | 0.0155 | 0
UUUUCGGCUG | 0.248 | 0.0538 | 0 | 0
UAGGCGAAGG | 0.144 | 0.0950 | 0 | 0
UCGACGUCUG | 0.458 | 0.125 | 0 | 0.00684
UUAACGGUGG | 0.261 | 0.0896 | 0.00920 | 0
UCGGCGACGG | 0.275 | 0.0902 | 0.00920 | 0
UGGUCGCAUG | 0.183 | 0.0826 | 0.0169 | 0
UGGACGGGUG | 0.248 | 0.625 | 0.0747 | 0.0607
UUUACGUAGG | 0.379 | 0.0889 | 0.00773 | 0
UGCGCGCCUG | 0.248 | 0.100 | 0 | 0
UCCUCGACAG | 0.209 | 0.100 | 0.0155 | 0
UCCACGUUCG | 0.366 | 0.0650 | 0.0261 | 0
UACCCGCGUG | 0.118 | 0.136 | 0.0670 | 0
UAUUCGGAAG | 0.118 | 0.0768 | 0 | 0
UGGACGGCUG | 0.209 | 0.0959 | 0 | 0
UCUGCGUAUG | 0.327 | 0.0886 | 0.138 | 0
UCAUCGCCAG | 0.170 | 0.0905 | 0.00920 | 0
UUUUCGUAUG | 0.235 | 0.0892 | 0.129 | 0
UCCUCGGUCG | 0.144 | 0.0712 | 0.00773 | 0
UUCCCGAUAG | 0.353 | 0.0771 | 0.0401 | 0

The last 4 entries again:

sequence,pool,IR,LM,Sys
UCAUCGCCAG,0.170,0.0905,0.00920,0
UUUUCGUAUG,0.235,0.0892,0.129,0
UCCUCGGUCG,0.144,0.0712,0.00773,0
UUCCCGAUAG,0.353,0.0771,0.0401,0

Samples held 36,220 to 57,551 reads, so the smallest values rest on one or two reads.
The authors trace changes outside the varied positions to PCR and sequencing errors or to mutation in the plant; presence does not show that a variant is infectious alone.